The record followed here is patent US20160296499A1, “Spiroindoline Antiparasitic Derivatives” (ZOETIS SERVICES LLC, priority 2013, published 2016).

One test relates to Haemonchus contortus L3. Nature of the test: Haemonchus contortus, Larvae Stage 3 (HcL3) In Vitro Assay. Conditions: Minimal Effective Concentration whereby worm motility is inhibited by approximately 70%; 96 hours, 37° C.; tested 0.001-100 μM. How it is done: Haemonchus contortus, Larvae Stage 3 (HcL3) In Vitro Assay
The Haemonchus contortus L3 strain was obtained from the University of Georgia and is a relatively recent multiple-resistant field isolate (International Journal for Parasitology 37 (2007) 795-804). Compounds were dissolved in DMSO to give an initial concentration of 30 mM. The stock concentration was subsequently titrated in basal media to give an eleven point half-log concentration curve for testing. Following the serial dilution, 250 nl of each compound solution was transferred to an assay plate (384-well) whereby 25 μL of exsheathed worms (˜100 larvae/well) were subsequently added. The final compound concentrations in the 384-well plate following worm addition ranged from 0.001-100 μM. Assay plates were incubated at 37° C. and observed at 96 hours for drug effect. Endpoint data (Table 2, HcL3) are recorded as a Minimal Effective Concentration (MEC) whereby worm motility is inhibited by approximately 70%.

Test [1] relates to Dirofilaria immitis microfilariae. Nature of the test: Dirofilaria immitis, Microfilariae (DiMF) In Vitro Assay. The following applies: MEC, decrease in microfilariae motility by visual assessment; 72 hours; curve starting at 100 μM. Here is the method: Dirofilaria immitis, Microfilariae (DiMF) In Vitro Assay
Compounds were initially dissolved in DMSO. The stock concentration was subsequently diluted in basal media and serially diluted to give a concentration response curve starting at 100 μM (11 total concentrations). Following the serial dilution, compound solution was transferred to an assay plate (384-well) where D.i. microfilariae (˜200/well) that have been purified from microfilaremic canine blood were subsequently added. […] Each compound was evaluated for decrease in microfilariae motility by subjective visual assessment and endpoint data were recorded as minimally effective dose (MEC) in μM following the incubation period.

In the case of `O=C(NCc1ccnc(Cl)c1)N1CC2(CCN(C/C=C/c3ccc(C(F)(F)F)cn3)CC2)c2c1ccc1sncc21`, the “HcL3 MEC” value with Haemonchus contortus L3 is greater than 100 µM. The “Di MF” value in test [1] was found to be 33 µM.

With `O=C(NCc1ccnc(Cl)c1)N1CC2(CCN(Cc3ccc4cc(F)ccc4n3)CC2)c2c1ccc1sncc21`, the “HcL3 MEC” value with Haemonchus contortus L3 was greater than 100 µM. Further, in test [1], the “Di MF” value was determined as 10 µM.

On to `O=C(NCc1ccnc(Cl)c1)N1CC2(CCN(C/C=C/c3ccc(F)cc3)CC2)c2c1ccc1sncc21`, for which the “HcL3 MEC” value with Haemonchus contortus L3 is greater than 100 µM. Moreover, the “Di MF” value in test [1] turned out to be 10 µM.
